Test system: Streptococcus mutans (ATCC® 700610™)
Assay: Fluorescence imaging of Sn^2+ in bacteria (confocal laser scanning microscopy)
Format: cell-based

CCN(CC)c1ccc2c(c1)Oc1cc(N(CC)CC)ccc1C21c2ccccc2C(=O)N1NC(=O)OC(C)(C)C [Compound R2]
fluorescence emission without Sn^2+ present (Streptococcus mutans stained with 10µM probe at 37° C for 60 min): no fluorescence emission
change of fluorescence after incubation with Sn^2+ (Streptococcus mutans, probe for 60 min at 37° C, then 50 µM Sn^2+ under the same conditions): significant fluorescence increasing
localization of fluorescence signals (overlay of fluorescence and brightfield images) (Streptococcus mutans, probe then 50 µM Sn^2+): localized in the Streptococcus mutans

Reference: patent EP2961753B1, “STANNOUS FLUORESCENT PROBE” (priority 2014, dated 2015)
